Chains of the proteins cited; added tags and fusions are not shown.
UniProt P9WI81, whole entry: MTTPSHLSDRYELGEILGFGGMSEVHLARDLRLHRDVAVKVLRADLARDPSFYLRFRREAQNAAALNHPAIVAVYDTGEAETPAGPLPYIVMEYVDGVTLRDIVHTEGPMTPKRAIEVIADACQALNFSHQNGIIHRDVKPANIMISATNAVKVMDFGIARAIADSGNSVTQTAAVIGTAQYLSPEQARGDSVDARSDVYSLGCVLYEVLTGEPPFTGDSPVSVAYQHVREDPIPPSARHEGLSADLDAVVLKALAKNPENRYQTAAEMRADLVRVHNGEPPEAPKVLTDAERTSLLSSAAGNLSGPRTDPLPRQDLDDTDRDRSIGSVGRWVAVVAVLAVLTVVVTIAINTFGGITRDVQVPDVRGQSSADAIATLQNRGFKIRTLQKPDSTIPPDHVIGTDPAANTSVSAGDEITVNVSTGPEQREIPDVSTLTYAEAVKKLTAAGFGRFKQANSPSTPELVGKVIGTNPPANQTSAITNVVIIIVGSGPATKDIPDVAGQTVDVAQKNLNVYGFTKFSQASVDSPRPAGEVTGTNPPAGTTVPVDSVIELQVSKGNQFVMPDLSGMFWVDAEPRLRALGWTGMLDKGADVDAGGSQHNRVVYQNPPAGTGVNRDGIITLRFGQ

In article PMC10104807, “Modulation of tau tubulin kinases (TTBK1 and TTBK2) impacts ciliogenesis” (Scientific Reports, 2023):

Biological target: PKNB(M.tuberculosis) (Mycobacterium tuberculosis, UniProt P9WI81)
Test: DiscoverX scanMAX binding assay
Conditions: 1 μM

CCC(C)(O)C#Cc1ccc2[nH]c3c(c2c1)-c1nc(N)ncc1CCC3 (racemic)
PKNB(M.tuberculosis) % control at 1000nM: 4.4 % control
